Anti-infective test results gathered from many reports (values: NIAID ChemDB through PubChem).

Shared fields: tests in culture; organism: HIV-1; method: cytopathic effect / MTT; measure: EC50

Rows are shuffled and stem from different studies.

| smiles | setting | cells | mutations | strain | value |
|---|---|---|---|---|---|
| CC1C(=O)Nc2ccc(Cl)cc2S(=O)(=O)N1Cc1cc(Cl)cc(Cl)c1 |  | MT-4 |  |  | 1.5 µM |
| CC(C)c1nc(CN(C)C(=O)N[C@H](C(=O)N[C@@H](Cc2ccccc2)C[C@H](O)[C@H](Cc2ccccc2)NC(=O)OCc2cncs2)C(C)C)cs1 |  | MT-4 |  | NL4-3 PR-S12T I15V I19L M36I R41K H69K L89M I93L CLONE 6( C ) | 0.042 µM |
| CCC(C)Oc1nc(Sc2ccccc2)cc(=O)[nH]1 |  | MT-4 |  | IIIB | >147 µM |
| Cc1cn([C@H]2C[C@H](N=[N+]=[N-])[C@@H](CO)O2)c(=O)[nH]c1=O |  | MT-2 | RT-Q151M V75I |  | >10 µM |
| CC(C)(C)NC(=O)[C@@H]1C[C@@H]2CCCC[C@@H]2CN1C[C@@H](O)[C@H](Cc1ccccc1)NC(=O)[C@H](CC(N)=O)NC(=O)c1ccc2ccccc2n1 |  | MT-4 |  | IIIB | 0.018 µM |
| CCC(C)Oc1cc(=O)[nH]c(Sc2ccccc2OC)n1 |  | MT-4 |  | IIIB | 65 µM |
| CCN(C(C)C(=O)O)S(=O)(=O)c1cc(Cl)ccc1N |  | MT-4 |  |  | >200 µM |
| CC(C)=CCN1Cc2cccc3[nH]c(=S)n(c23)C[C@@H]1C |  | MT-2 |  | IIIB | 0.13 µM |
| CC(C)CN(C[C@@H](O)[C@H](Cc1ccccc1)NC(=O)O[C@H]1CCOC1)S(=O)(=O)c1ccc(N)cc1 |  | MT-2 |  | LAI Laboratory isolate | 0.041 µM |
| CC(C)(C)NC(=O)[C@@H]1CN(Cc2cccnc2)CCN1C[C@H](C[C@@H](Cc1ccccc1)C(=O)N[C@H]1c2ccccc2C[C@H]1O)OC(=O)CCCCNC(=O)O[C@H]1[C@@H](C2COC(C)(C)O2)OC2OC(C)(C)O[C@H]21.O=C(O)C(F)(F)F.O=C(O)C(F)(F)F |  | MT-4 |  | IIIB | 42 µM |
| CN(C)c1cccc2c(S(=O)(=O)N3CCSC3c3cccnc3)cccc12 | 5 d | MT-4 |  | IIIB-R | >2000 µM |
| Cc1c(O)cccc1C(=O)N[C@@H](CSc1ccccc1)[C@H](O)CN1C[C@H]2CCCC[C@H]2C[C@H]1C(=O)NC(C)(C)C |  | MT-4 |  | NL4-3 PR S12T I15V I19L M36I R41K H69K L89M CLONE 5( C ) | 0.0392 µM |
| CCC(C)Oc1nc(Sc2cc(C)cc(C)c2)cc(=O)[nH]1 |  | MT-4 |  | IIIB | >115 µM |
| COC(=O)N[C@H](C(=O)N[C@@H](Cc1ccccc1)C[C@H](O)[C@H](Cc1ccccc1)NC(=O)[C@@H]1CN(c2ccccc2)C(=O)O1)C(C)(C)C |  | MT-4 |  | NL4-3 | 1.03 µM |
| Cc1cn([C@H]2C[C@H](N=[N+]=[N-])[C@@H](COP(=O)(Oc3ccccc3)C(O)c3cccnc3)O2)c(=O)[nH]c1=O |  | MT-4 |  | IIIB | 0.04 µM |
| CC(C)c1c(C(O)c2ccccc2)cn(Cc2ccncc2)c1Sc1cc(Cl)cc(Cl)c1 |  | MT-4 |  | IIIB | 1.2 µM |
| Nc1ccc(Cl)cc1S(=O)(=O)NCC(=O)O |  | MT-4 |  |  | >200 µM |
| Nc1ccn([C@H]2CC[C@@H](CO)O2)c(=O)n1 |  | MT-4 |  | IIIB | 0.16 µg/mL |
| CC(C)=CCN1C(C)C(=S)Nc2ccc(Cl)cc2S1(=O)=O |  | MT-4 |  |  | 4.6 µM |
| O=c1[nH]cnc2c1ncn2[C@H]1CC[C@@H](CO)O1 |  | MT-4 |  | IIIB | 19.32 µM |
| CC(C)(C)NC(=O)[C@@H]1CN(Cc2cccnc2)CCN1C[C@@H](O)C[C@@H](Cc1ccccc1)C(=O)N[C@H]1c2ccccc2C[C@H]1O |  | MT-4 |  | IIIB | 0.022 µM |
| CCOC(=O)c1cn(Cc2ccncc2)c(Sc2cc(Cl)cc(Cl)c2)c1C1CC1 |  | MT-4 |  | IIIB | 1.5 µM |
| Nc1ccn([C@H]2CC[C@@H](CO)O2)c(=O)n1 |  | MT-4 | RD 23-RTwt |  | 0.84 µM |
| CCC(C)Oc1cc(=O)[nH]c(Sc2cccc(OC)c2)n1 |  | MT-4 |  | IIIB | 150 µM |
| CC(C)(C)NC(=O)[C@@H]1C[C@@H]2CCCC[C@@H]2CN1C[C@@H](O)[C@H](Cc1ccccc1)NC(=O)[C@H](CC(N)=O)NC(=O)c1ccc2ccccc2n1 |  | MT-2 |  | NL4-3 Laboratory clone | 0.019 µM |
| Cc1cn([C@H]2C[C@H](N=[N+]=[N-])[C@@H](CO)O2)c(=O)[nH]c1=O |  | MT-2 |  | IIIB (BI-RG-587-RS) | 0.13 µM |
| C[C@@H]1C(=O)Nc2ccc(Cl)cc2S(=O)(=O)N1Cc1c(F)cccc1F |  | MT-4 |  |  | 0.2 µM |
| CCC(C)Oc1cc(=O)[nH]c(S(=O)(=O)c2cccc(Cl)c2)n1 |  | MT-4 |  | IIIB | >104 µM |
| Nc1ncnc2c1ncn2CCOCP(=O)(O)O |  | MT-4 |  | IIIB | 6.47 µM |
| Nc1nc(=O)n([C@@H]2CC[C@H](CO)O2)cc1F |  | MT-4 |  | IIIB | 2.35 µM |
| O=C(O)CCC(=O)O |  | MT-4 |  | IIIB | >25 µM |
| COc1ccc(OP(=O)(OC[C@H]2O[C@@H](n3cc(C)c(=O)[nH]c3=O)C[C@@H]2N=[N+]=[N-])C(O)c2cccnc2)cc1 |  | MT-4 |  | IIIB | 0.01 µM |
| CNNC(=O)c1cn(Cc2ccncc2)c(Sc2ccccc2)c1C(C)C |  | MT-4 |  | IIIB | >200 µM |
| CC(C)(C)NC(=O)[C@@H]1CC2CCCCC2CN1C[C@@H](OC(=O)CCC(=O)O[C@H]1[C@@H](C2COC(C)(C)O2)OC2OC(C)(C)O[C@H]21)[C@H](Cc1ccccc1)NC(=O)[C@H](CC(N)=O)NC(=O)c1ccc2ccccc2n1.O=C(O)C(F)(F)F.O=C(O)C(F)(F)F |  | CEM + CEM-SS |  | LAI | 0.032 µM |
| Cc1cn(C2CC(N=[N+]=[N-])C(COP(=O)(OC[C@H]3O[C@@H](n4cc(C)c(=O)[nH]c4=O)C[C@@H]3N=[N+]=[N-])C(=O)OCCSC(=O)C(C)(C)C)O2)c(=O)[nH]c1=O |  | MT-4 |  | IIIB | 0.0025 µM |
| Cc1cn([C@H]2C[C@H](N=[N+]=[N-])[C@@H](CO)O2)c(=O)[nH]c1=O |  | CEM + CEM-SS |  | IIIB | 0.004 µM |
| CCOC(=O)P(=O)(OCc1ccc(Cl)cc1)OCc1ccc(Cl)cc1 |  | MT-4 |  | IIIB | >10 µM |
| Nc1nc2c(ncn2[C@H]2CO[C@@H](CO)O2)c(=O)[nH]1 |  | MT-2 | RT-Q151M |  | 21 µM |
| Cc1cn([C@H]2C[C@H](N=[N+]=[N-])[C@@H](CO)O2)c(=O)[nH]c1=O | 5 d | MT-4 |  | IIIB-R | 0.033 µM |
| CC(C)c1c(CO)cn(Cc2ccncc2)c1Sc1cc(Cl)cc(Cl)c1 |  | MT-4 |  | IIIB | 0.03 µM |
| COc1ccc(C(O)P(=O)(OC[C@H]2O[C@@H](n3cc(C)c(=O)[nH]c3=O)C[C@@H]2N=[N+]=[N-])Oc2ccccc2)cc1 |  | MT-4 |  | IIIB | 0.04 µM |
| Cc1ccnc2c1NC(=O)c1cccnc1N2C1CC1 | 5 d | MT-4 |  | HE-NEV | >1000 µM |
| COc1ccc(C(O)P(=O)(OC[C@H]2O[C@@H](n3ccc(=O)[nH]c3=O)C[C@@H]2N=[N+]=[N-])Oc2ccccc2)cc1 |  | MT-4 |  | IIIB | >20 µM |
| Cc1ccnc2c1NC(=O)c1cccnc1N2C1CC1 |  | MT-2 |  | IIIB | 0.12 µM |
| COc1ccc(S(=O)(=O)O)cc1N=Nc1c(S(=O)(=O)O)cc2cc(Nc3nc(Nc4ccccc4)nc(Nc4cc(C)c(N=Nc5cc(S(=O)(=O)O)cc6cc(S(=O)(=O)O)cc(O)c56)cc4OC)n3)ccc2c1O |  | MT-4 |  | NL4-3 | 0.7 µg/mL |
| CCCc1cc(=O)oc2c3c(c4c(c12)OC(C)(C)C=C4)O[C@@H](C)[C@H](C)[C@H]3O |  | MT-2 |  | G910-6 | >1 µg/mL |
| Nc1nc(NC2CC2)c2ncn([C@H]3C=C[C@@H](CO)C3)c2n1 |  | MT-4 | RT M41L A62V T69SSS insertion V75V/A M184I L210W T215Y | SW3-10125R | 22.7 µM |
| Cn1cc(C(=O)O)c(=O)c2cc(F)c(N3CC=C(c4ccccc4)CC3)c(C(F)(F)F)c21 |  | CEM |  | IIIB | 0.062 µM |
| CC(C)(C)C(=O)SCCOC(=O)P(=O)(O)OCCSC(=O)C(C)(C)C |  | MT-4 |  | IIIB | 44 µM |
| CCC(C)Oc1nc(N)cc(S(=O)(=O)c2cccc(C)c2)n1 |  | MT-4 |  | IIIB | 4.7 µM |
| CONC(=O)c1cn(Cc2ccncc2)c(Sc2ccccc2)c1C(C)C |  | MT-4 |  | IIIB | 1.9 µM |
| NCC(=O)Nc1ccc(Cl)cc1C(=O)c1ccc[nH]1 |  | CEM |  | IIIB | 0.13 µg/mL |
| Nc1ncnc2c1ncn2CCOCP(=O)(O)O |  | MT-2 |  | IIIB (BI-RG-587-RS) | 17.6 µM |
| CCC(C)Oc1cc(=O)[nH]c(Sc2ccc(F)cc2)n1 |  | MT-4 |  | IIIB | 56 µM |
| CC1C(=O)Nc2ccc(Cl)cc2S(=O)(=O)N1Cc1c(F)cccc1F |  | MT-4 |  |  | 0.2 µM |
| Cc1cn([C@H]2C[C@H](N=[N+]=[N-])[C@@H](COP(=O)(O)C(=O)OCCSC(=O)C(C)(C)C)O2)c(=O)[nH]c1=O |  | MT-4 |  | IIIB | 7 µM |
| CCOC(=O)c1cn(Cc2ccncc2)c(Sc2cc(Cl)cc(Cl)c2)c1C1CCCCC1 |  | MT-4 |  | IIIB | 0.64 µM |
| Cc1cn([C@H]2C[C@H](N=[N+]=[N-])[C@@H](CO)O2)c(=O)[nH]c1=O |  | MT-2 |  | IIIB | 0.036 µM |
| C[C@H](Cn1cnc2c(N)ncnc21)OCP(=O)(OCOC(=O)NC(C)(C)C)OCOC(=O)NC(C)(C)C |  | MT-2 |  | IIIB | >10 µM |
| CNNC(=O)c1cn(Cc2ccncc2)c(Sc2cc(Cl)cc(Cl)c2)c1C(C)C |  | MT-4 |  | IIIB | 4 µM |
| CCC(C)Oc1cc(=O)n(C)c(Sc2ccccc2)n1 |  | MT-4 |  | IIIB | >200 µM |
| Cc1ccnc2c1NC(=O)c1cccnc1N2C1CC1 |  | C8166 |  | RF | 0.04 µM |
| CC(C)(C)NC(=O)[C@@H]1C[C@@H]2CCCC[C@@H]2CN1C[C@@H](O)[C@H](Cc1ccccc1)NC(=O)[C@H](CC(N)=O)NC(=O)c1ccc2ccccc2n1 |  | MT-4 |  | NL4-3 | 0.01 µM |
| CC(C)(C)NC(=O)[C@@H]1CC2CCCCC2CN1C[C@@H](OC(=O)CC(=O)O[C@H]1[C@@H](C2COC(C)(C)O2)OC2OC(C)(C)O[C@H]21)[C@H](Cc1ccccc1)NC(=O)[C@H](CC(N)=O)NC(=O)c1ccc2ccccc2n1 |  | CEM + CEM-SS |  | LAI | 0.019 µM |
| C[C@H](Cn1cnc2c(N)ncnc21)OCP(=O)(O)O |  | MT-4 | HXB2-RTwt | HXB2 | 0.48 µM |
| Cc1cn([C@H]2C[C@H](N=[N+]=[N-])[C@@H](COP(=O)(Oc3ccccc3)C(O)c3ccccc3)O2)c(=O)[nH]c1=O |  | MT-4 |  | IIIB | 0.06 µM |
| CNC(C)[C@H]1O[C@H](O[C@@H]2[C@@H](O)[C@H](O[C@@H]3OC[C@@](C)(O)[C@@H](NC)[C@@H]3O)[C@@H](NC(=O)[C@@H](N)CCCN=C(N)N)C[C@H]2NC(=O)[C@@H](N)CCCN=C(N)N)[C@H](NC(=O)[C@@H](N)CCCN=C(N)N)[C@@H](O)[C@@H]1O |  | MT-4 |  | NL4-3 | 24 µM |
| Cc1cccc(C)c1OP(=O)(OC[C@H]1O[C@@H](n2cc(C)c(=O)[nH]c2=O)C[C@@H]1N=[N+]=[N-])C(O)c1cccnc1 |  | MT-4 |  | IIIB | 0.01 µM |
| OCc1cn(Cc2ccncc2)c(Sc2cc(Cl)cc(Cl)c2)c1C1CC1 |  | MT-4 |  | IIIB | 0.2 µM |
| Cc1c(O)cccc1C(=O)N[C@@H](CSc1ccccc1)[C@H](O)CN1C[C@H]2CCCC[C@H]2C[C@H]1C(=O)NC(C)(C)C |  | MT-2 |  | NL4-3 Laboratory clone | 0.023 µM |

Again, the opening 10 rows:

smiles | setting | cells | mutations | strain | value
CC1C(=O)Nc2ccc(Cl)cc2S(=O)(=O)N1Cc1cc(Cl)cc(Cl)c1 |  | MT-4 |  |  | 1.5 µM
CC(C)c1nc(CN(C)C(=O)N[C@H](C(=O)N[C@@H](Cc2ccccc2)C[C@H](O)[C@H](Cc2ccccc2)NC(=O)OCc2cncs2)C(C)C)cs1 |  | MT-4 |  | NL4-3 PR-S12T I15V I19L M36I R41K H69K L89M I93L CLONE 6( C ) | 0.042 µM
CCC(C)Oc1nc(Sc2ccccc2)cc(=O)[nH]1 |  | MT-4 |  | IIIB | >147 µM
Cc1cn([C@H]2C[C@H](N=[N+]=[N-])[C@@H](CO)O2)c(=O)[nH]c1=O |  | MT-2 | RT-Q151M V75I |  | >10 µM
CC(C)(C)NC(=O)[C@@H]1C[C@@H]2CCCC[C@@H]2CN1C[C@@H](O)[C@H](Cc1ccccc1)NC(=O)[C@H](CC(N)=O)NC(=O)c1ccc2ccccc2n1 |  | MT-4 |  | IIIB | 0.018 µM
CCC(C)Oc1cc(=O)[nH]c(Sc2ccccc2OC)n1 |  | MT-4 |  | IIIB | 65 µM
CCN(C(C)C(=O)O)S(=O)(=O)c1cc(Cl)ccc1N |  | MT-4 |  |  | >200 µM
CC(C)=CCN1Cc2cccc3[nH]c(=S)n(c23)C[C@@H]1C |  | MT-2 |  | IIIB | 0.13 µM
CC(C)CN(C[C@@H](O)[C@H](Cc1ccccc1)NC(=O)O[C@H]1CCOC1)S(=O)(=O)c1ccc(N)cc1 |  | MT-2 |  | LAI Laboratory isolate | 0.041 µM
CC(C)(C)NC(=O)[C@@H]1CN(Cc2cccnc2)CCN1C[C@H](C[C@@H](Cc1ccccc1)C(=O)N[C@H]1c2ccccc2C[C@H]1O)OC(=O)CCCCNC(=O)O[C@H]1[C@@H](C2COC(C)(C)O2)OC2OC(C)(C)O[C@H]21.O=C(O)C(F)(F)F.O=C(O)C(F)(F)F |  | MT-4 |  | IIIB | 42 µM

ECn is the concentration giving n% inhibition of infection, replication or growth. Blank or dashed fields: not listed here.